Where “and” joins values, the source holds several entries; their conditions need not be identical. Equal entries are not always repeated.
What was measured:
PieA = test: bio-layer interferometry; details: parent: 0.23 ± 0.023
[1] = biological target: (His)10-MBP-DotL(656-783)–IcmSW–LvgA(I153E) (Legionella pneumophila) (UniProt Q5ZYC6); test: BLI
[2] = biological target: (His)10-MBP-DotL(656-783)–IcmSW–LvgA (Legionella pneumophila) (UniProt Q5ZYC6); test: BLI

Substance	kon [2]	other results
(His)10-MBP-DotL(656-783)–IcmSW–LvgA (from UniProt Q5ZYC6;Q5ZYD0;Q5ZS31;Q5ZY48) LvgA:I153E		Kd (PieA): 2.95 µM
PieA (natural protein)		fold increase of KD against the wild-type complex [1]: 13 fold; kon [1]: 4230 M⁻¹ s⁻¹ and 3050 M⁻¹ s⁻¹ and 3640 M⁻¹ s⁻¹
SidH(1830-2200;F2191A) (domain or fragment)	683 M⁻¹ s⁻¹ and 303 M⁻¹ s⁻¹ and 493 M⁻¹ s⁻¹	
SidH(1830-2200;L2195A) (domain or fragment)	401 M⁻¹ s⁻¹ and 504 M⁻¹ s⁻¹ and 452 M⁻¹ s⁻¹	
VpdB(11-590) (domain or fragment)	56800 1/(M s) and 68400 1/(M s) (2×) and 64600 1/(M s)	
VpdB(11-590) F483A (domain or fragment)	5710 M⁻¹ s⁻¹ and 5020 M⁻¹ s⁻¹ and 5370 M⁻¹ s⁻¹	
VpdB(11-590) K470A (domain or fragment)	6070 M⁻¹ s⁻¹ and 7540 M⁻¹ s⁻¹ and 6800 M⁻¹ s⁻¹	
VpdB(11-590) K484A (domain or fragment)	2020 M⁻¹ s⁻¹ and 1940 M⁻¹ s⁻¹ and 1980 M⁻¹ s⁻¹	fold increase of KD against VpdB(11-590) [2]: 9 times
VpdB(11-590) L480A (domain or fragment)	1110 M⁻¹ s⁻¹ and 882 M⁻¹ s⁻¹ and 996 M⁻¹ s⁻¹	fold increase of KD against VpdB(11-590) [2]: 14 times
VpdB(11-590) T473A (domain or fragment)	5140 M⁻¹ s⁻¹ and 4350 M⁻¹ s⁻¹ and 4750 M⁻¹ s⁻¹	

— paper PMC7251119, “Structural basis for effector protein recognition by the Dot/Icm Type IVB coupling protein complex” (2020)
